Compound potency records, mixed from different reports. Data source: NIAID ChemDB in PubChem.

Common to all: whole-cell or culture tests; organism: Hepatitis C virus; cell line: Huh7; endpoint: EC50

a–b is a range or a potency band. Rows are shuffled and stem from different studies. ECn: concentration that inhibits the pathogen or its effect by n%. An empty or dashed field is not shown.

SMILES	strain or isolate	method	value
COc1cccc(CC(=O)N/N=C/c2c(F)cccc2OS(=O)(=O)c2ccc(C(F)(F)F)cc2)c1	-	replicon	<5 µM
CCc1cc2c(C(=O)NC)c(-c3ccc(F)cc3)oc2cc1N(CS(C)(=O)=O)c1cscn1	-	replicon	<1 µM
C=C[C@H]1C[C@@]1(NC(=O)[C@@H]1C[C@@H](Oc2cc(-c3ccccc3)nc3cc(OC)ccc23)CN1C(=O)[C@@H](NC(=O)OC(C)(C)C)C(C)(C)C)C(=O)NS(=O)(=O)C1(Cc2c(C)noc2C)CC1	1b	replicon	0.5–5 µM
CC(O)CNC(=O)c1cnccc1Nc1nc(-c2cc(Cl)ccc2F)nc2nc(NCCN(C)C)ccc12	-	replicon	>10 µM
COC(=O)c1ccc2c(C3CCCCC3)c3n(c2c1)CC(C(=O)O)=Cc1ccccc1-3	-	replicon	0.01–1 µM
C[C@@]1(F)[C@H](O)[C@@H](CO)O[C@@]1(CN)n1ccc(=O)[nH]c1=O	1b	replicon	>89 µM
C=C[C@H]1C[C@@]1(NC(=O)[C@@H]1C[C@@H](Oc2cc(-c3ccccc3)nc3cc(OC)ccc23)CN1C(=O)[C@@H](NC(=O)OC(C)(C)C)C(C)(C)C)C(=O)NS(=O)(=O)C1(CC2CC2)CC1	1b	replicon	<0.05 µM
NS(=O)(=O)c1ccc(CNc2nc(NCC(F)(F)F)c3nc(-c4ccc(F)c(Cl)c4)cnc3n2)cc1	HCV replicon	replicon	0.3–1 µM
COC(=O)/C=C/c1ccc(NC(=O)C2(NC(=O)c3ccc4c(C5CCCCC5)c5n(c4c3)CCCn3cccc3-5)CCCC2)cc1	-	replicon	1–10 µM
CCNc1cc2oc(-c3ccc(F)cc3)c(C(=O)NC)c2c(Cl)c1OS(C)(=O)=O	-	replicon	<10 µM
C=C[C@H]1C[C@@]1(NC(=O)[C@@H]1C[C@@H](Oc2cc(-c3ccccc3)nc3cc(OC)ccc23)CN1C(=O)[C@@H](NC(=O)OC(C)(C)C)C(C)(C)C)C(=O)NS(=O)(=O)C1(CCCC)CC1	1b	replicon	<0.05 µM
COC(=O)/C=C/c1ccc(NC(=O)C2(NC(=O)c3ccc4c(C5CCCCC5)c5n(c4c3)CCCc3sc(N)nc3-5)CCCC2)cc1	-	replicon	>10 µM
CCOCCN1CCN(c2nc(N)nc3ncc(-c4ccc(OC)c(OC)c4)nc23)CC1	HCV replicon	replicon	<0.3 µM
CN1CCN(C(=O)C2Cc3ccccc3-c3c(C4CCCCC4)c4ccc(C(=O)O)cc4n3C2)CC1	-	replicon	0.01–1 µM
COc1cccc(CC(=O)N/N=C/c2ccc(C)cc2OS(=O)(=O)c2ccc(C)cc2)c1	-	replicon	<5 µM
COc1ccc2c(O[C@@H]3C[C@@H](C(=O)N[C@@]4(C(=O)NS(=O)(=O)C5(CC6CC6)CC5)CC45CC5)N(C(=O)[C@@H](NC(=O)OC(C)(C)C)C(C)(C)C)C3)cc(-c3ccccc3)nc2c1	1b	replicon	0.5–5 µM
CCOC(=O)/C=C/c1ccc(NC(=O)C2(NC(=O)c3ccc4c(C5CCCCC5)c5n(c4c3)CC(=O)Nc3ccccc3-5)CCCCC2)cc1	-	replicon	0.01–1 µM
O=C(N[C@@H](Cc1c[nH]c2ccccc12)C(=O)O)c1ccc2nc(-c3ccc(F)cc3)c(-c3ccc(F)cc3)nc2c1	-	replicon	>50 µM
CNC(=O)c1c(-c2ccc(F)cc2)oc2cc(O)c(O)cc12	-	replicon	>30 µM
COc1ccc2c(O[C@@H]3C[C@@H](C(=O)NC4(C(=O)NS(=O)(=O)C5(Nc6ccccc6)CC5)CC4)N(C(=O)[C@@H](NC(=O)OC(C)(C)C)C(C)(C)C)C3)cc(-c3ccccc3)nc2c1	1b	replicon	5–50 µM
CNC(=O)c1c(-c2ccc(F)cc2)oc2cc(N(C)S(C)(=O)=O)c(OCc3ccc(OC)cc3)cc12	-	replicon	<1 µM
C=C[C@@H]1C[C@]1(NC(=O)C1C[C@@H](Oc2cc(-c3csc(NC4CCC4)n3)nc3cc(OC)ccc23)CN1C(=O)[C@@H](NC(=O)OC1CCCC1)C(C)(C)C)C(=O)O	-	-	<0.5 µM
NC(=O)[C@@H](Cc1ccc(O)cc1)NC(=O)c1ccc2c(c1)nc(-c1ccoc1)n2C1CCCCC1	-	-	~31 µM
Nc1nc2c(s1)CCCn1c-2c(C2CCCCC2)c2ccc(C(=O)NC3(C(=O)Nc4ccc(/C=C/C(=O)O)cc4)CCCC3)cc21	-	replicon	1–10 µM
COc1cccc(CC(=O)N/N=C/c2cccc(C)c2OS(=O)(=O)c2ccc(C)cc2)c1	-	replicon	<5 µM
C=C[C@@H]1C[C@]1(NC(=O)C1C[C@@H](Oc2cc(-c3csc(NC4CCCC4)n3)nc3cc(OC)ccc23)CN1C(=O)[C@@H](NC(=O)OC1CCCCC1)C(C)(C)C)C(=O)O	-	-	<0.5 µM
NC(=O)[C@H](Cc1c[nH]c2ccc(O)cc12)NC(=O)c1ccc2nc(-c3ccc(F)cc3)c(-c3ccc(F)cc3)nc2c1	-	replicon	10–50 µM
O=C(Cc1cc(F)c(F)cc1F)N/N=C/c1ccccc1OS(=O)(=O)c1ccc(C(F)(F)F)cc1	-	replicon	<5 µM
Cc1nc2c(s1)CCCn1c-2c(C2CCCCC2)c2ccc(C(=O)NC3(C(=O)Nc4ccc(/C=C/C(=O)O)cc4)CCCC3)cc21	-	replicon	1–10 µM
C=C[C@@H]1C[C@]1(NC(=O)C1C[C@@H](Oc2cc(-c3csc(NC4CCCC4)n3)nc3cc(OC)ccc23)CN1C(=O)[C@@H](NC(=O)OC1CCC1)C(C)(C)C)C(=O)O	-	-	<0.5 µM
COc1ccc(-c2cnc3nc(N)nc(N4CCN(CC5CCCO5)CC4)c3n2)cc1OC	HCV replicon	replicon	0.3–1 µM
C=CC1CC1(NC(=O)[C@@H]1C[C@@H](Oc2cc(-c3ccccc3)nc3cc(OC)ccc23)CN1C(=O)[C@@H](NC(=O)OC(C)(C)C)C(C)(C)C)C(=O)NS(=O)(=O)C1(Br)CC1	1b	replicon	<0.05 µM
CNC(=O)c1c(-c2ccc(F)cc2)oc2cc(N3CCOCC3)c(OCc3nccn3Cc3ccccc3)cc12	-	replicon	<1 µM
CCCC1(S(=O)(=O)NC(=O)[C@]2(NC(=O)[C@@H]3C[C@@H](Oc4cc(-c5ccccc5)nc5cc(OC)ccc45)CN3C(=O)[C@@H](NC(=O)OC(C)(C)C)C(C)(C)C)CC23CC3)CC1	1b	replicon	0.5–5 µM
Fc1ccc(Cl)cc1-c1nc(Nc2ccncc2)c2ccc(NCCN3CCCCC3)nc2n1	-	replicon	1.6 µM
CNC(=O)c1c(-c2ccc(F)cc2)oc2cc(N3CCOCC3)c(OCc3csc(C)n3)cc12	-	replicon	<1 µM
COc1ccc(-c2cnc3nc(N)nc(N4CCN(C(=O)Cc5cccs5)CC4)c3n2)cc1OC	HCV replicon	replicon	<0.3 µM
Fc1ccc(Cl)cc1-c1nc(Nc2ccncc2)c2cccnc2n1	-	replicon	0.77 µM
COc1ccc(-c2cnc3nc(N)nc(N4CCN(C(=O)Oc5ccc(Cl)cc5)CC4)c3n2)cc1OC	HCV replicon	replicon	<0.3 µM
COc1ccc(CNc2ccc3c(Nc4ccncc4F)nc(-c4cc(Cl)ccc4F)nc3n2)cc1	-	replicon	5.1 µM
CNC(=O)c1c(-c2ccc(F)cc2)oc2cc(N(C)S(C)(=O)=O)c(OCC3CC3)cc12	-	replicon	<1 µM
COc1ccc(OC(=O)N2CCN(c3nc(N)nc4ncc(-c5ccc(OC)c(OC)c5)nc34)CC2)cc1	HCV replicon	replicon	<0.3 µM
Cc1cnccc1Nc1nc(-c2cc(Cl)ccc2F)nc2nc(N)ccc12	-	replicon	0.67 µM
CCOc1ccc2oc(-c3ccccc3)c(C(=O)NC)c2c1	-	replicon	>30 µM
COc1ccc(-c2cnc3nc(N)nc(N4CCN(Cc5ccc(C)cc5)CC4)c3n2)cc1OC	HCV replicon	replicon	0.3–1 µM
COC(=O)[C@H](Cc1c[nH]c2ccccc12)NC(=O)c1ccc2nc(-c3ccc(F)cc3)c(-c3ccc(F)cc3)nc2c1	-	replicon	10–50 µM
COc1ccc(-c2cnc3nc(N)nc(N4CCN(C(=O)Cc5ccc(Cl)cc5)CC4)c3n2)cc1OC	HCV replicon	replicon	<0.3 µM
COC(=O)[C@H](Cc1c[nH]c2ccc(O)cc12)NC(=O)c1ccc2nc(-c3ccc(F)cc3)c(-c3ccc(F)cc3)nc2c1	-	replicon	10–50 µM
COc1ccc2c(O[C@@H]3C[C@@H](C(=O)NC4(C(=O)NS(=O)(=O)C5(Cc6ccccc6)CC5)CC4)N(C(=O)[C@@H](NC(=O)OC(C)(C)C)C(C)(C)C)C3)cc(-c3ccccc3)nc2c1	1b	replicon	5–50 µM
COc1cccc(CC(=O)N/N=C/c2c(OS(=O)(=O)c3ccc(C)cc3)ccc3ccccc23)c1	-	replicon	5–50 µM
CNC(=O)c1c(-c2ccc(F)cc2)oc2cc(N3CCOCC3)c(O)cc12	-	replicon	<10 µM

Repeating the final 4 entries:

SMILES | strain or isolate | method | value
COC(=O)[C@H](Cc1c[nH]c2ccc(O)cc12)NC(=O)c1ccc2nc(-c3ccc(F)cc3)c(-c3ccc(F)cc3)nc2c1 | - | replicon | 10–50 µM
COc1ccc2c(O[C@@H]3C[C@@H](C(=O)NC4(C(=O)NS(=O)(=O)C5(Cc6ccccc6)CC5)CC4)N(C(=O)[C@@H](NC(=O)OC(C)(C)C)C(C)(C)C)C3)cc(-c3ccccc3)nc2c1 | 1b | replicon | 5–50 µM
COc1cccc(CC(=O)N/N=C/c2c(OS(=O)(=O)c3ccc(C)cc3)ccc3ccccc23)c1 | - | replicon | 5–50 µM
CNC(=O)c1c(-c2ccc(F)cc2)oc2cc(N3CCOCC3)c(O)cc12 | - | replicon | <10 µM